Anti-infective test results gathered from many reports (values: NIAID ChemDB through PubChem).

All rows: tests in culture; species: Mycobacterium tuberculosis

ECn is the concentration giving n% inhibition of infection, replication or growth.

{"compound": "N#Cc1c(/N=C/c2cc(Cl)cc(Cl)c2O)sc2c1CCC2", "read by": "resazurin", "endpoint": "MIC bound", "strain": "H37Rv", "result": ">6.25 µg/mL"}
{"compound": "CC(=O)C1CC1", "endpoint": "MIC", "strain": "H37Rv", "result": ">100 µg/mL"}
{"compound": "CC(Cc1c[nH]c2ccccc12)NCCNC1CCCC(C)C1C", "endpoint": "MIC", "result": "50 µM"}
{"compound": "C/C(NNC(=O)c1ccccc1O)=C1/C=Nc2ccccc2S1", "read by": "BACTEC", "endpoint": "MIC", "strain": "H37Rv", "result": "≥12.5 µg/mL"}
{"compound": "CCOC(=O)Nc1cc(NC/C(=C\\O)c2ccc(C)cc2)c([N+](=O)[O-])c(N)n1", "endpoint": "EC50", "strain": "H37Rv", "result": ">12.5 µg/mL"}
{"compound": "C=CCN(CC=C)C(C)=O", "endpoint": "MIC", "strain": "H37Rv", "result": ">100 µg/mL"}
{"compound": "Cc1ccc(S(=O)(=O)ONNc2nccc3ccccc23)cc1", "read by": "BACTEC", "endpoint": "MIC", "strain": "H37Rv", "result": "≥12.5 µg/mL"}
{"compound": "CCOC(=O)Nc1cc(NCc2ccc(S(N)(=O)=O)cc2)c(N)c(N)n1", "endpoint": "EC50", "strain": "H37Rv", "result": ">12.5 µg/mL"}
{"compound": "O=c1[nH][nH]c(=O)c2c1nc(SCc1ccc(Cl)c(Cl)c1)n2Cc1ccccc1", "read by": "BACTEC", "endpoint": "MIC bound", "strain": "H37Rv", "result": ">12.5 µg/mL"}
{"compound": "O=[N+]([O-])c1ccccc1O", "endpoint": "MIC", "strain": "H37Rv", "result": ">100 µg/mL"}
{"compound": "O=C1CC(c2ccccc2)Oc2ccc(Br)cc21", "endpoint": "EC50", "strain": "H37Rv", "result": ">12.5 µg/mL"}
{"compound": "CC1CCCCC1NCCNCCC(c1ccccc1)c1ccccc1", "endpoint": "MIC", "result": "6.25 µM"}
{"compound": "Cc1ccc(S(=O)(=O)NN=C2CCC3(O)CC2(C)CCC2C3CC2(C)C)cc1", "read by": "BACTEC", "endpoint": "MIC bound", "strain": "H37Rv", "result": ">12.5 µg/mL"}
{"compound": "CCCCC(CC)CN1CN(CC(CC)CCCC)CC(C)(NCCNCCCCO)C1", "endpoint": "MIC", "result": "12.5 µM"}
{"compound": "Cl.Oc1ccc(Nc2ccnc3cc(Cl)ccc23)cc1CN1CCCCC1", "endpoint": "MIC", "strain": "H37Rv", "result": "50 µg/mL"}
{"compound": "CCCNC(=O)CS(=O)(=O)c1ccc(N)cc1", "read by": "BACTEC", "endpoint": "MIC bound", "strain": "H37Rv", "result": ">12.5 µg/mL"}
{"compound": "CCOc1ccccc1CNCCNCc1ccc(OC(F)(F)F)cc1", "endpoint": "MIC", "result": "50 µM"}
{"compound": "O=C(c1ccccc1)N1CCCCC1", "endpoint": "MIC", "strain": "H37Rv", "result": ">100 µg/mL"}
{"compound": "COc1ccc(C2Oc3ccc(Br)cc3C(=O)C2O)cc1", "endpoint": "inhibition", "tested at": "12.5 µg/mL", "strain": "H37Rv", "result": "24%"}
{"compound": "CCCCN(CCCC)c1ccc(OC(=O)c2ccccc2)cc1O", "endpoint": "MIC", "strain": "H37Rv", "result": ">100 µg/mL"}
{"compound": "CCC(C)(C)NCCNCc1cccc(F)c1", "endpoint": "MIC", "result": "50 µM"}
{"compound": "O=C1c2c(O)cccc2-c2nn(CCNCCO)c3ccc(NCCNCCO)c1c23", "read by": "BACTEC", "endpoint": "inhibition", "tested at": "12.5 µg/mL", "strain": "H37Rv", "result": "95%"}
{"compound": "Fc1ccc(CCNCCNCCc2ccccc2F)cc1", "endpoint": "MIC", "result": "25 µM"}
{"compound": "O=C1NC(CCCl)C(=O)NC1CCCl", "endpoint": "MIC", "strain": "H37Rv", "result": ">100 µg/mL"}
{"compound": "NCC[C@H](O)C(=O)N[C@@H]1C[C@H](N)[C@@H](O[C@H]2O[C@H](CN)[C@@H](O)[C@H](O)[C@H]2O)[C@H](O)[C@H]1O[C@H]1O[C@H](CO)[C@@H](O)[C@H](N)[C@H]1O", "read by": "broth dilution / resazurin", "endpoint": "MIC", "strain": "MDR8", "result": "32 µg/mL"}
{"compound": "CO[C@H]1/C=C/O[C@@]2(C)Oc3c(C)c(O)c4c(O)c(c(/C=N/N5CCN(C/C=C/c6ccccc6)CC5)c(O)c4c3C2=O)NC(=O)/C(C)=C\\C=C\\[C@H](C)[C@H](O)[C@@H](C)[C@@H](O)[C@@H](C)[C@H](OC(C)=O)[C@@H]1C", "endpoint": "MBC", "strain": "27 (rifampin-resistant)", "result": "0.2 µg/mL"}
{"compound": "CC(=O)Oc1ccc([C@H]2Oc3cc(OC(C)=O)cc(OC(C)=O)c3C(=O)[C@@H]2c2c(OC(C)=O)cc(OC(C)=O)c3c(=O)cc(-c4ccc(OC(C)=O)c(OC(C)=O)c4)oc23)cc1", "endpoint": "inhibition", "tested at": "12.5 µg/mL", "result": "0%"}
{"compound": "CCOc1ccc(N)c([N+](=O)[O-])c1", "endpoint": "MIC", "strain": "H37Rv", "result": "25 µg/mL"}
{"compound": "O=C(/C=C/c1ccccc1)c1cccc(I)c1O", "endpoint": "EC50", "result": ">12.5 µg/mL"}
{"compound": "Cc1ccc2ccccc2c1/C(Cl)=C/C(=O)O", "endpoint": "MIC", "strain": "H37Rv", "result": "50 µg/mL"}
{"compound": "C=C(C)C1CC=C(C)/C(=N/NC(=O)c2cccnc2)C1", "endpoint": "MIC", "strain": "RMP-R", "result": "0.2 µg/mL"}
{"compound": "CCOC(=O)Nc1cc(N[C@@H](C)[C@H](O)c2ccccc2)c(N)c(N)n1", "endpoint": "EC50", "strain": "H37Rv", "cell line": "VERO", "result": "<12.5 µg/mL"}
{"compound": "O=C(O)c1ccc(O)c(C(=O)/C=C/c2cccc(I)c2)c1", "endpoint": "EC50", "result": ">12.5 µg/mL"}
{"compound": "CCOC(=O)Nc1cc(N)c2nc(CN(C)c3ccccc3)cnc2n1", "endpoint": "EC50", "strain": "H37Rv", "result": ">12.5 µg/mL"}
{"compound": "O=C1CC(c2ccccc2)Oc2cc(Cl)ccc21", "endpoint": "inhibition", "tested at": "12.5 µg/mL", "strain": "H37Rv", "result": "0%"}
{"compound": "CCCCC(CC)CN1CN(CC(CC)CCCC)CC(C)(NCCNCCC(c2ccccc2)c2ccccc2)C1", "endpoint": "MIC", "result": "12.5 µM"}
{"compound": "CCCCC(CC)CN1CN(CC(CC)CCCC)CC(C)(NCCNCCc2ccccc2Cl)C1", "endpoint": "MIC", "result": "12.5 µM"}
{"compound": "O=C(NC=Cc1ccco1)NC1CCCCCCCCCCC1", "read by": "resazurin", "endpoint": "MIC bound", "strain": "H37Rv", "result": ">6.25 µg/mL"}
{"compound": "CO[C@H]1/C=C/O[C@@]2(C)Oc3c(C)c(O)c4c(=O)c(c5oc6cc(N7CCN(CC(C)C)CC7)cc(=O)c6nc5c4c3=C2O)NC(=O)/C(C)=C\\C=C\\[C@H](C)[C@H](O)[C@@H](C)[C@@H](O)[C@@H](C)[C@H](OC(C)=O)[C@@H]1C", "endpoint": "MIC", "strain": "2624 (rifampin-sensitive)", "result": "0.003 µg/mL"}
{"compound": "CCC(=O)c1ccc(N)cc1", "endpoint": "MIC", "strain": "H37Rv", "result": ">100 µg/mL"}
{"compound": "CCCCCCCCCCCNCCNC1CCCCC1", "endpoint": "MIC", "result": "25 µM"}
{"compound": "CN[C@@H]1[C@H](O[C@H]2[C@H](O[C@H]3[C@H](O)[C@@H](O)[C@H](N=C(N)N)[C@@H](O)[C@@H]3N=C(N)N)O[C@@H](C)[C@]2(O)C=O)O[C@@H](CO)[C@H](O)[C@H]1O", "endpoint": "MIC", "strain": "TN810 (001/19)", "result": ">2 µg/mL"}
{"compound": "CN(CC(=O)c1ccccc1)c1ccccc1", "endpoint": "MIC", "strain": "H37Rv", "result": "25 µg/mL"}
{"compound": "C=C(C)[C@H]1Cc2c(ccc3c2O[C@@H]2COc4cc(OC)c(OC)cc4[C@@H]2C3=O)O1", "read by": "BACTEC", "endpoint": "inhibition", "tested at": "128 µg/mL", "strain": "H37Rv", "result": "88%"}
{"compound": "Nc1ccccc1-c1ccccn1", "endpoint": "MIC", "strain": "H37Rv", "result": ">100 µg/mL"}
{"compound": "O=C1C(Cl)=C(NCCCN(CCO)CCO)C(=O)c2ccccc21", "read by": "BACTEC", "endpoint": "MIC bound", "strain": "H37Rv", "result": ">12.5 µg/mL"}
{"compound": "COc1cc(Br)c(C(C)CC(=O)O)cc1OC", "endpoint": "MIC", "strain": "H37Rv", "result": ">100 µg/mL"}
{"compound": "O=CNC12C(=O)NC(=O)C1(C(=O)O)C21CCCCC1", "read by": "BACTEC", "endpoint": "inhibition", "tested at": "12.5 µg/mL", "strain": "H37Rv", "result": "36%"}
{"compound": "CCOC(=O)Nc1ccccn1", "endpoint": "EC50", "strain": "H37Rv", "result": ">12.5 µg/mL"}
{"compound": "CCCCCCCCCCCCCCCCCCOC(=O)c1c(O)c(O)cc2ccccc12", "endpoint": "MIC", "strain": "H37Rv", "result": ">100 µg/mL"}
{"compound": "COc1ccc(CCNCCNCCCCc2ccccc2)cc1OC", "endpoint": "MIC", "result": "50 µM"}
{"compound": "Oc1ccc(Br)cc1", "endpoint": "MIC", "strain": "H37Rv", "result": ">100 µg/mL"}
{"compound": "C=CCC1(C(C)C(OC(C)=O)c2ccc3c(c2)OCO3)CC(OC)C=CC1=O", "read by": "BACTEC", "endpoint": "inhibition", "tested at": "12.5 µg/mL", "strain": "H37Rv", "result": "-1%"}
{"compound": "CC(C)c1ccc2c(c1)CC[C@H]1[C@](C)(CNCCNCCCCO)CCC[C@]21C", "endpoint": "MIC", "result": "50 µM"}
{"compound": "O=[N+]([O-])c1ccc(C[n+]2ccccc2)cc1", "endpoint": "MIC", "strain": "H37Rv", "result": ">100 µg/mL"}
{"compound": "CCCCCNC(=O)c1csc(-c2csc(CCNC(C)=O)n2)n1", "read by": "BACTEC", "endpoint": "MIC", "strain": "H37Rv", "result": "≥12.8 µg/mL"}
{"compound": "CCCCCCCCCCCNCCNCc1ccccc1", "endpoint": "MIC", "result": "25 µM"}
{"compound": "COc1cc(OC)c2c(c1)OC(c1cc(OC)c(OC)c(OC)c1)C(Br)(Br)C2=O", "endpoint": "EC50", "result": ">12.5 µg/mL"}
{"compound": "COc1cccc2c1C(=O)c1c(O)c3c(c(O)c1C2=O)C[C@@](O)(/C(C)=N/NC(=O)c1ccc(Cl)cc1)C[C@H]3O[C@H]1C[C@H](N)[C@H](O)[C@H](C)O1", "endpoint": "MIC", "strain": "INH-r", "result": ">12.5 µg/mL"}
{"compound": "Cc1cc(C)c(-c2c(O)c(Br)c(-c3c(C)cc(C)c(Br)c3C)c(O)c2Br)c(C)c1Br", "endpoint": "MIC", "strain": "H37Rv", "result": ">100 µg/mL"}
{"compound": "COc1cc2c(cc1O)CC[n+]1cc3c(OC)c(OC)ccc3cc1-2", "read by": "BACTEC", "endpoint": "inhibition", "tested at": "12.8 µg/mL", "strain": "H37Rv", "result": "9%"}
{"compound": "CC(CNCCc1ccccc1F)NC1CCCC(C)C1C", "endpoint": "MIC", "result": ">50 µM"}
{"compound": "COc1ccc2c(c1OC)C1=C(C2=O)c2cc3c(cc2CCN1)OCO3", "read by": "BACTEC", "endpoint": "MIC", "strain": "H37Rv", "result": "≥12.5 µg/mL"}
{"compound": "CCOC(=O)c1ccccc1NCCO", "endpoint": "MIC", "strain": "H37Rv", "result": ">100 µg/mL"}
{"compound": "O=C(c1ccccc1)c1c(CO[N+](=O)[O-])n([O-])c2ccccc2[n+]1=O", "read by": "BACTEC", "endpoint": "MIC bound", "strain": "H37Rv", "result": "≤12.5 µg/mL"}
{"compound": "Cc1c([N+](=O)[O-])cc(I)c(N)c1I", "endpoint": "MIC", "strain": "H37Rv", "result": "100 µg/mL"}
{"compound": "CN(C)C(=O)/N=N/C(=O)N(C)C", "read by": "BACTEC", "endpoint": "inhibition", "tested at": "12.5 µg/mL", "strain": "H37Rv", "result": "0%"}
{"compound": "Cc1ccc(C(=O)C(=O)N(C)c2ccccc2)cc1", "endpoint": "MIC", "strain": "H37Rv", "result": ">100 µg/mL"}
{"compound": "CC[CH2][Sn]([Br])([Br])[CH2]CC.c1cnc2c(c1)ccc1cccnc12", "read by": "BACTEC", "endpoint": "inhibition", "tested at": "12.5 µg/mL", "strain": "H37Rv", "result": "99%"}
{"compound": "COc1ccc(C2CC(=O)c3c(cc(OC)c(-c4c(OC)cc5c(c4OC)C(=O)CC(c4ccc(OC)cc4)O5)c3OC)O2)cc1", "endpoint": "EC50", "strain": "H37Rv", "result": ">12.5 µg/mL"}

For reference, 4 entries again:

compound | read by | endpoint | tested at | strain | cell line | result
Oc1ccc(Br)cc1 |  | MIC |  | H37Rv |  | >100 µg/mL
O=c1[nH][nH]c(=O)c2c1nc(SCc1ccc(Cl)c(Cl)c1)n2Cc1ccccc1 | BACTEC | MIC bound |  | H37Rv |  | >12.5 µg/mL
O=[N+]([O-])c1ccc(C[n+]2ccccc2)cc1 |  | MIC |  | H37Rv |  | >100 µg/mL
COc1cc(Br)c(C(C)CC(=O)O)cc1OC |  | MIC |  | H37Rv |  | >100 µg/mL

Inhibition is in % at the dose shown (toxicity tests: loss of growth or viability). An empty or dashed field is not shown. Neighbouring rows are from separate reports. MIC bound: limit read from a one-dose screen.